Measurements published in article PMC10022506.

Tested on: CC(=O)C(=O)O
Experiment: purified protein
Details: apparent, 100 mM formaldehyde, 1 mM Mg2+, 50 mM CHES pH 9.0, 45 °C

Point of comparison: PaADL (Pseudomonas aeruginosa; L241A), Km 68 ± 7.8 mM. Against it:
- PaADL (Pseudomonas aeruginosa; L241A/V121A) — within 1.5-fold, 52 ± 3.8 mM
- PaADL (Pseudomonas aeruginosa; V121A) — 1.7-fold lower, 41 ± 3.1 mM

Point of comparison: “PaADL (Pseudomonas aeruginosa; L241A/V121A)”, kcat 7.55 s⁻¹. Against it:
- PaADL (Pseudomonas aeruginosa; V121A) — within 1.5-fold, 6.55 s⁻¹
- PaADL (Pseudomonas aeruginosa; L241A) — within 1.5-fold, 7.02 s⁻¹

Point of comparison: “PaADL (Pseudomonas aeruginosa; L241A/V121A)”, kcat/Km 147 M⁻¹ s⁻¹. Against it:
- PaADL (Pseudomonas aeruginosa; V121A) — within 1.5-fold, 158 M⁻¹ s⁻¹
- PaADL (Pseudomonas aeruginosa; L241A) — within 1.5-fold, 103 M⁻¹ s⁻¹
